{"source": "patent US20230357364A1", "about": "(INTERNATIONAL AIDS VACCINE INITIATIVE, published 2023)", "biological_target": "SARS-CoV-2 spike on pseudovirus or live virus (USA-WA1/2020, WT) (SARS-CoV-2, UniProt P0DTC2 14-1273)", "test": "cell-based or functional assay"}
{"binder": "L12.bP11A06 (antibody, V domains shown) VH: EVQLVESGGGLIQPGGSLRLSCAASGLTVSSNYMSWVRQAPGKGLEWVSVIYSGGSTFYADSVKGRFTISRDNSKNTLYLQMNSLRAEDTAVYYCARDLDVYGLDVWGQGTTVTVSS VL: DIVMTQSPSFLSASVGDRVTITCRASQGISSYLAWYQQKPGKAPKLLIYAASTLQSGVPSRFSGSGSGTEFTLTISSLQPEDFATYYCQQLNSYPPKFTFGPGTKVEIK", "values": [{"measurement": "PSV neutralization IC50", "value": 0.017, "unit": "µg/mL"}]}
